Measured values from several laboratories, pooled; numbers as filed in NIAID ChemDB.

Common to all: enzyme or target tests; species: Pneumocystis carinii; protein: DHFR; endpoint: IC50

ICn: concentration for n% inhibition.

CCc1nc(N)nc(N)c1-c1ccc(N(C)Cc2ccccc2)c(N)c1 ; result: 3.6 µM
Cc1nc2nc(N)nc(N)c2nc1CN(C)c1ccc2c(Cl)cc(Cl)cc2c1 ; result: >10 µM
O=C(O)c1cc(Sc2ccc(O)c(C(=O)O)c2)ccc1O ; result: >100 µM
CC1(C)N=C(N)N=C(N)N1c1ccc(N)cc1 ; result: 70.9 µM
Cc1cc(NC(=O)Oc2ccc3c(C)cc(=O)oc3c2)cc(Br)c1NC(=O)Oc1ccc2c(C)cc(=O)oc2c1 ; result: 90 µM
Nc1nc(N)c2[nH]c(-c3c(Cl)cccc3Cl)nc2n1 ; result: >11 µM
COc1ccccc1NC1=C(Cl)C(=O)C(Nc2ccccc2OC)=C(Cl)C1=O ; result: >100 µM
Nc1nc(N)c2nc(CNc3ccc4cc(Cl)ccc4c3)cnc2n1 ; result: 44 µM
CC(=O)c1ccc(NCc2cnc3nc(N)nc(N)c3n2)cc1 ; result: 0.72 µM
COc1c(Cc2cnc(N)nc2N)cc2c(c1OC)OCC2 ; result: 12.9 µM
CCc1nc(N)nc(N)c1-c1ccc(N(CC)Cc2ccccc2)c([N+](=O)[O-])c1 ; result: 5.7 µM
COc1cc(Cc2cnc(N)nc2N)cc(OC)c1C(C)(C)O ; result: 25 µM
O=C1OC2(c3ccccc31)c1ccc(O)c(O)c1Oc1c2ccc(O)c1O ; result: 74 µM
Nc1nc(N)c2[nH]c(-c3ccncc3)nc2n1 ; result: >18 µM
c1ccc(Oc2nc(Oc3ccccc3)nc(Oc3ccccc3)n2)cc1 ; result: 130 µM
CC1(C)N=C(N)N=C(N)N1c1ccc(OCC(=O)Nc2ccccc2)c(Cl)c1 ; result: 0.3 µM
COc1cc(OC)c(-c2nc3nc(N)nc(N)c3[nH]2)cc1OC ; result: >22 µM
CN(Cc1cnc2nc(N)nc(N)c2n1)c1c(Cl)cc(C(=O)N[C@@H](CCC(=O)O)C(=O)O)cc1Br ; result: 0.00021 µM
CN(Cc1cnc2nc(N)nc(N)c2n1)c1ccc(C(=O)N[C@@H](CCC(=O)N[C@@H](CCC(=O)N[C@@H](CCC(=O)N[C@@H](CCC(=O)O)C(=O)O)C(=O)O)C(=O)O)C(=O)O)cc1 ; result: 0.000035 µM
COc1ccc(OC)c(-c2nc3nc(N)nc(N)c3[nH]2)c1 ; result: >37.4 µM
O=S(=O)(O)c1cc(O)c(N=Nc2cccc3ccc(O)cc23)c2ccccc12 ; result: 140 µM
CN(Cc1cnc2nc(N)nc(N)c2n1)c1ccc(C(=O)N[C@@H](CCC(=O)N[C@@H](CCC(=O)N[C@@H](CCC(=O)N[C@@H](CCC(=O)O)C(=O)O)C(=O)O)C(=O)O)C(=O)O)cc1 ; result: 0.000035 µM
COc1cc(Cc2cnc(N)nc2N)cc(OC)c1NS(=O)c1ccc(NC(C)=O)cc1 ; result: 31 µM
NC(=O)c1ccc(NCc2cnc3nc(N)nc(N)c3n2)cc1 ; result: 0.153 µM
COc1cc(Cc2cnc(N)nc2N)cc(OCc2ccccc2)c1OC ; result: 13.9 µM
O=C(O)c1cc2ccccc2c(Cc2c(O)c(C(=O)O)cc3ccccc23)c1O ; result: 172 µM
Nc1ncc(Cc2cc(Cl)c(-n3cccc3)c(Cl)c2)c(N)n1 ; result: 10.9 µM
CN(Cc1cnc2nc(N)nc(N)c2n1)c1ccc(C(=O)N[C@@H](CCC(=O)O)C(=O)O)c2ccccc12 ; result: 0.00019 µM
CC1(C)N=C(N)N=C(N)N1c1ccc2ccccc2c1 ; result: 0.72 µM
COc1cc(Cc2cnc(N)nc2N)c2c(c1Br)OC=CC2 ; result: 5.9 µM
CN(Cc1cnc2nc(N)nc(N)c2n1)c1c(F)cc(C(=O)N[C@H](CCC(=O)O)C(=O)O)cc1F ; result: 0.00051 µM
CC1(C)N=C(N)N=C(N)N1c1cccc(CCCCc2ccc(Cl)c(Cl)c2)c1 ; result: 0.36 µM
COc1ccc(C(=O)c2cc(OC)c(OC)c(OC)c2)cc1OC ; result: 42 µM
COc1cc(Cc2cnc(N)nc2N)cc(OCCCC(CCC(=O)O)C(=O)O)c1Br ; result: 0.043 µM

3 of the rows above, restated:

smiles | result
O=C(O)c1cc2ccccc2c(Cc2c(O)c(C(=O)O)cc3ccccc23)c1O | 172 µM
Cc1nc2nc(N)nc(N)c2nc1CN(C)c1ccc2c(Cl)cc(Cl)cc2c1 | >10 µM
O=S(=O)(O)c1cc(O)c(N=Nc2cccc3ccc(O)cc23)c2ccccc12 | 140 µM

Rows are shuffled and stem from different studies.